The record followed here is paper PMC12617615, “Decoding substrate recognition in malapain-2 through structural and mutational insights” (Computational and Structural Biotechnology Journal, 2025).

As usually defined, the Km is the concentration of substrate that gives half-maximal velocity.

Data set [1] relates to Cc1cc(=O)oc2cc(NC(=O)[C@H](CCCNC(=N)N)NC(=O)[C@H](CCCNC(=N)N)NC(=O)OCc3ccccc3)ccc12. Nature of the data set: purified protein. The conditions noted are these: 100 mM sodium acetate pH 5.0, 10 mM DTT, 37 °C, 20 nM enzyme, substrate range 0.1–100 μM.
For data set [2], the system named is Cc1cc(=O)oc2cc(NC(=O)[C@H](CCCNC(=N)N)NC(=O)[C@H](CC(C)C)NC(=O)OCc3ccccc3)ccc12. As to the kind of experiment: purified protein. The conditions noted are these: 100 mM sodium acetate pH 5.0, 10 mM DTT, 37 °C, 20 nM enzyme, substrate range 0.1–100 μM.

Turning to “malapain-2 (MP-2) (Plasmodium malariae; E496A)”, the Michaelis-Menten constant (Km) in data set [1] is listed as 393.7 ± 1.7 µM; in data set [2], 290.7 ± 2.1 µM.

For the substance “malapain-2 (MP-2) (Plasmodium malariae; T348I)”, the values for the Km in data set [1] and in data set [2] were 469.5 ± 1.2 µM and 534 ± 1.9 µM, respectively.

As for “malapain-2 (MP-2) (Plasmodium malariae; E496D)”, the results for the Km in data set [1] and in data set [2] were 289.1 ± 0.9 µM and 923.9 ± 0.9 µM, respectively.

On to “malapain-2 (MP-2) (Plasmodium malariae; T348A)”, for which the Km in data set [1] came out at 448.4 ± 1.6 µM; in data set [2], 77.9 ± 1.3 µM.

As to “malapain-2 (MP-2) (Plasmodium malariae; E496D/T348I)”, the Km was 674.4 ± 3.1 µM in data set [1] and 201.2 ± 6.1 µM in data set [2].
